PubChem BioAssay AID624099 – ICCB-Longwood – 2012
The whole screen tested about 21,000 reagents; shown is a random part of them. 497 of them (2.4%) count as active. 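Higher z means weaker E2 silencing; only reporter increases were scored, and knock-downs that hurt cell survival may mask genuine repressor factors.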 A number with no mark means an inactive call.

Screen: 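Host factors E2 relies on to silence an HPV18 LCR reporter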 (primary screen)
Cell system: human C33A cervical carcinoma cells (HPV-negative) stably expressing BPV1 E2 and an HPV18 LCR luciferase reporter
Knock-down reagent: siRNA pool against human genes, 40 nM
Duration: 72 h
Read-out: 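HPV18 LCR reporter light per well, converted to plate-wise z-scores that exclude control wells, and averaged over triplicate plates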
Reading the numbers: mean z-score and z-score: higher = stronger reporter signal, weaker E2 silencing
Call rule: 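Hit if mean z-score reaches 2 and two or more of three replicate z-scores also reach 2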

| gene | PubChem SID | mean z-score | z-score, replicate A | z-score, replicate B | z-score, replicate C |
| --- | --- | --- | --- | --- | --- |
| TLK1 | SID56478782 | 1.37 | 1.41 | 1.37 | 1.32 |
| ELP2 | SID134324678 | -0.04 | 0.16 | -0.3 | 0.03 |
| TMEM183AP3 | SID134328529 | 0.39 | -0.05 | 0.11 | 1.11 |
| WWP1P1 | SID134325809 | -0.01 | -0.31 | 0.08 | 0.19 |
| SH3D19 | SID134325930 | -0.1 | -0.23 | 0.01 | -0.08 |
| CUL3 | SID134314826 | -1.35 | -1.53 | -1.27 | -1.24 |
| SPDYE4 | SID134328760 | 1.05 | 0.81 | 0.87 | 1.47 |
| ZNF211 | SID134323888 | 0.48 | 0.75 | 0.63 | 0.07 |
| HEATR4 | SID134326915 | -1.29 | -1.39 | -1.35 | -1.13 |
| MEMO1P1 | SID134329064 | -1.14 | -0.99 | -1.21 | -1.22 |
| CSN1S2AP | SID134326001 | -1.16 | -1.24 | -1.11 | -1.12 |
| TMEM220 | SID134328764 | -0.38 | -0.09 | -0.15 | -0.89 |
| TOPORS | SID134323793 | 0.18 | 0.35 | -0.01 | 0.19 |
| PKD1 | SID134312703 | -0.43 | -0.1 | -0.32 | -0.87 |
| ATAT1 | SID134318654 | 1.01 | 1.08 | 1.33 | 0.62 |
| TSPAN19 | SID134326675 | 0.07 | -0.09 | 0.2 | 0.09 |
| KIF1C | SID134314927 | 0.68 | 0.68 | 0.55 | 0.81 |
| SIPA1L1 | SID134318131 | 1.26 | 0.94 | 1.4 | 1.43 |
| CPLX4 | SID134322597 | -0.1 | -0.31 | 0.15 | -0.15 |
| DSE | SID134317860 | -0.52 | -0.19 | -0.7 | -0.65 |
| LOC391498 (retired record) | SID134327287 | 0.83 | 0.92 | 1.04 | 0.53 |
| IFFO2 | SID134325275 | -1.82 | -2.16 | -1.77 | -1.54 |
| SCGN | SID134317848 | -2.34 | -2.34 | -2.42 | -2.26 |
| LRRTM1 | SID134322194 | 1.13 | 0.88 | 1.35 | 1.16 |
| BLOC1S4 | SID134324799 | 3.68 (active) | 3.79 | 3.58 | – |
| LPL | SID134313811 | 0.98 | 1.25 | 0.84 | 0.84 |
| RANGAP1 | SID134312007 | -0.46 | -0.66 | -0.5 | -0.23 |
| LOC284269 | SID134325677 | 0.7 | 0.94 | 0.29 | 0.87 |
| NPIPB6 | SID134328706 | -0.57 | -0.84 | -0.41 | -0.46 |
| HMGB3 | SID134323713 | -0.22 | 0.01 | -0.39 | -0.27 |
| ALDH1A3 | SID134313917 | -0.72 | -0.91 | -0.48 | -0.77 |
| ALDH1A3 | SID134328607 | -0.25 | -0.46 | -0.41 | 0.12 |
| KLHDC3 | SID134317221 | -2.58 | -3.26 | -2.28 | -2.19 |
| GAGE5 | SID134315626 | -1.44 | -1.74 | -1.36 | -1.23 |
| HSH2D | SID134319089 | 0.72 | 0.32 | 0.57 | 1.28 |
| STPG2 | SID134321926 | 0.26 | 0.23 | 0.02 | 0.53 |
| LOC387931 (retired record) | SID134328447 | 0.16 | 0.4 | 0.19 | -0.12 |
| CMC2 | SID134324049 | -0.56 | -0.72 | -0.4 | -0.55 |
| SPINDOC | SID134326598 | -0.12 | 0.14 | -0.38 | – |
